Results of unrelated studies side by side (data: NIAID ChemDB).

Common to all: tests on isolated targets; organism: HIV-1; target: Protease; read by: fluorescence; endpoint: Ki

Blank or dashed fields: not listed here.

smiles,strain,mutations,result
CC(C)[C@H](NC(=O)[C@H](C)NC(=O)OCc1ccccc1)C(=O)N[C@@H](Cc1ccccc1)[C@H](O)CN1CCC[C@H]1C(=O)NC(C)(C)C,,,0.499 µM
O=C1N(Cc2ccc(O)cc2)[C@H](Cc2ccccc2)[C@H](O)[C@@H](O)[C@@H](Cc2ccccc2)N1Cc1cccc(-c2ccn[nH]2)c1,RF,,0.000021 µM
O=C1N(Cc2ccc(CO)cc2)[C@H](COc2ccccc2)[C@H](O)[C@@H](O)[C@@H](COc2ccccc2)N1Cc1ccc(CO)cc1,IIIB,PR-L90M PR-I84V,0.0031 µM
CC(C)(C)C(=O)c1cccc(CN2C(=O)N(Cc3cccc(C(=O)C(C)(C)C)c3)[C@H](Cc3ccccc3)[C@H](O)[C@@H](O)[C@H]2Cc2ccccc2)c1,RF,,0.0036 µM
CC(C)[C@H](NC(=O)[C@H](CO)NC(=O)OCc1ccccc1)C(=O)N[C@@H](Cc1ccccc1)[C@@H](O)[C@H](O)[C@H](Cc1ccccc1)NC(=O)[C@@H](NC(=O)[C@H](CO)NC(=O)OCc1ccccc1)C(C)C,,,0.00058 µM
CC(C)[C@H](NC(=O)N(C)Cc1ccccn1)C(=O)N[C@@H](Cc1ccccc1)[C@@H](O)[C@H](O)[C@H](Cc1ccccc1)NC(=O)[C@@H](NC(=O)N(C)Cc1ccccn1)C(C)C,,,0.001 µM
CC(C)[C@H](NC(=O)[C@H](C)NC(=O)OCc1ccccc1)C(=O)NC(Cc1ccccc1)C(=O)C(=O)N1CCC[C@H]1C(=O)NC(C)(C)C,,,0.0025 µM
CC(C)CN([C@H](CO)CCCCNC(=O)[C@H](Cc1ccc2ccccc2c1)NC(=O)CC(F)(F)F)S(=O)(=O)c1ccc(N)cc1,NL4-3,,0.0016 µM
CNC(=O)[C@@H](NC(=O)[C@H](Sc1ccccc1)[C@H](O)[C@@H](O)[C@@H](Sc1ccccc1)C(=O)N[C@H](C(=O)NC)C(C)C)C(C)C,,,0.0063 µM
O=C1N(Cc2cccc(CO)c2)[C@H](Cc2ccccc2)[C@H](O)[C@@H](O)[C@@H](Cc2ccccc2)N1Cc1cccc(-c2ccn[nH]2)c1,RF,,0.00016 µM
CC(C)[C@H](NC(=O)[C@H](C)NC(=O)OCc1ccccc1)C(=O)N[C@@H](Cc1ccccc1)[C@H](O)CN1C[C@H]2CCCC[C@H]2C[C@H]1C(=O)NC(C)(C)C,,,0.0015 µM
O=C1N(Cc2cccnc2)[C@H](Cc2ccccc2)[C@H](O)[C@@H](O)[C@@H](Cc2ccccc2)N1Cc1cccc(-c2ccn[nH]2)c1,RF,,0.00017 µM
CC(C)C[C@H](NC(=O)OCc1ccccc1)C(=O)N[C@H](C(=O)N[C@@H](Cc1ccccc1)[C@@H](O)[C@H](O)[C@H](Cc1ccccc1)NC(=O)[C@@H](NC(=O)[C@H](CC(C)C)NC(=O)OCc1ccccc1)C(C)C)C(C)C,,,0.0014 µM
CC(C)(C)OC(=O)N[C@@H](Cc1ccccc1)[C@H](O)[C@H](O)[C@H](Cc1ccccc1)NC(=O)OC(C)(C)C,,PR-R8Q,0.037 µM
CCC(=O)c1cccc(CN2C(=O)N(Cc3cccc(C(=O)CC)c3)[C@H](Cc3ccccc3)[C@H](O)[C@@H](O)[C@H]2Cc2ccccc2)c1,RF,,0.00021 µM

A second listing of 2 rows from above:

smiles,strain,mutations,result
CC(C)CN([C@H](CO)CCCCNC(=O)[C@H](Cc1ccc2ccccc2c1)NC(=O)CC(F)(F)F)S(=O)(=O)c1ccc(N)cc1,NL4-3,,0.0016 µM
CC(C)[C@H](NC(=O)N(C)Cc1ccccn1)C(=O)N[C@@H](Cc1ccccc1)[C@@H](O)[C@H](O)[C@H](Cc1ccccc1)NC(=O)[C@@H](NC(=O)N(C)Cc1ccccn1)C(C)C,,,0.001 µM

Lines come from different laboratories, so protocols vary.